Measured values taken from the supplement of paper PMC9931576.
Positions count from the first letter of the chain named. Human monoclonal antibodies against the spike receptor-binding domain (heavy:light variable regions). IC50 against pseudoviruses bearing the spike of naturally observed variants; lower = stronger; >10 µg/ml means not reached at the top dose. No active / inactive call. The stated detection limit is 0.0005 µg/ml; values near or below 0.001 µg/ml lie at the floor of the assay.

B1: BD56-343 (protein)
chain 1: QVELVQSGTEVKMPGSSVRLSCKTSRGTTYAISWVRQAPGQGLEWMGRIIPLLGRKNYAQKFQDRVTITADKSAGAAFMDLGSLTSDDTGMYYCVRNQDISGGISPIPIIWGQGTKVIVSS
chain 2: SFVLTQPPSVSVSPGQTARITCSGDALTKKYVYWHQQKPGQAPVLVISEDNMRPSGIPERFSGSTSGTIVTLTIGGVQSEDEADYYCQSPDTDGTWVFGGGTRLTVL
B2: BD57-0106 (protein)
chain 1: EVQLVESGGGLVQPGRSLRLSCAASGFKYDDFAMYWVRQAPGKGLEWVSGISWNSGSIAYADSVEGRFTISRDNAKNSLYLQMNSLRPEDTALYYCAKEFRDCSRTSCYEGVGYYFDYWGQGTLVTVSS
chain 2: QLVLTQSPSASASLGASVKLTCTLSSGHTNYAIAWHQQQPEKGPRYLMKVNSDGSHSKGDGIPDRFSGSSSGSERYLTISSLQSEDEADYYCQTWVTGLVVFGGGTKLTVL
B3: BD56-345 (protein)
chain 1: QVTLRESGPALVKPTQTLTLTCTFSGFSLNTSGMCVSWIRQPPGKALEWLALIDWDDDKYYSTSLKTRLTISKATSKNQVVLTMTNMDPVDTATYYCARIRGHYYYYGMDVWGQGTTVTVSS
chain 2: SYELTQPPSVSVSPGQTARITCSGDALPNQYAYWYQQRPGQAPVLVIYKDTERPSGIPERFSGSSSGTTVTLTISGVQAEDEADYYCQSADNNGSPVVFGGGTKLTVL
B4: BD56-335 (protein)
chain 1: EVQLVQSGAEVKKPGESLKISCKGYGFRFPNYWIGWVRQMPGKGLEWMGIIYADDSDTRYSPSFQGQVTISADKSISTAYVQWSSLKTSDSAMYYCAVAGGYGDYALWYWGQGTLVTVSS
chain 2: EIVMTQSPATLSVSPGERATLSCRASQSVSSNLAWYQQKPGQAPRLLIYGASTRATGFPARFSGSGSGTEFTLTISSLQSEDFAVYYCQQYNDWPPAFGQGTKVEIK
B5: BD56-313 (protein)
chain 1: EVSLVESGGGLIQPGGSLRLSCAASGLTVSRNYMSWVRQAPGKGLEWVSVIYSGGSTFYADSVKGRFTISRDNSKNTLYLQMNSLRAEDTAVYYCAREGAVAGNVGLAFDIWGLGTMVTVSS
chain 2: DIQMTQSPSSLSASVGDRVTITCQASQDIINYLNWYQQKPGKAPKLLIYDASNLETGVPSRFSGSGSGTDFTFTISTLQPEDIATYYCQQYDNLPRAFGPGTKVEIK
B6: BD57-0308 (protein)
chain 1: QVQLVESGGGVVQPGRSLRLSCAASGFSFSNYAMHWVRQAPGKGLEWVAVISYDGGNNKYFVDSVKGRFTISRDNSNNTMYLQMNSLRGEDTAVYYCAKDRATGGFCGSNTCYGFYDAMDVWGQGTTVTVSS
chain 2: DIVMTQSPDSLAVSLGERATINCKSSQSVFYSSRDKNYVAWYQQQPGQPPKLLIYWASAREAGVPDRFSGSGSGTDFTLTISSLQATDAAVYYCQQYYTSPHTFGRGTKVEIK
B7: BD57-0114 (protein)
chain 1: QITLKESGPTLVKPTQTLTLTCTFSGFSLSTSGVGVGWIRQPPGKALEWLALIYWDDDKRYSPSLKSRLTITKDTSKNQVVLTMTNMDPVDTATYYCAHRRDRNDYDSSGYYHYWGQGTLVTVSS
chain 2: EIVMTQSPATLSVSPGERATLSCRASQSVSSNLAWYQQKPGQAPRLLIYGASTRATGIPARFSGSGSGTEFTLTISSLQSEDFAVYYCQQYDNWPPITFGQGTRLEIK
B8: BD57-0398 (protein)
chain 1: QITLKESGPTLVKPTQTLTLTCTFSGFSLSTSGVGVGWIRQPPGKALEWLALIYWDDDKRYSPSLKNRLTITKDTSRNQVVLTMTNMDPVDTGTYYCAHSHDSSNWYDSGWFDPWGQGTLVTVSS
chain 2: B7 chain 2 with E1D, G64A, A84G, D92N, N93H, P96L, I97Y, R104K
B9: BD56-308 (protein)
chain 1: QVHLVQSGAEVKKSGSSVKVSCKASGGDFGTSAISWVRQAPGQGLEWMGGILPIFHSRNSAQKFQGRLTISADASTSTAYMELTGLTSEDTALYYCASGGVGPTVSSFFDSWGQGTLVTVSS
chain 2: EIVLTQSPGTLSLSPGERATLSCRASQSVSRSDLAWYQLKPGHAPRLLIYGASDRATGIPDRFSGSGSGTDFTLTISRLEPEDFAVYYCQQSTNSPITFGQGTRLDIK
B10: BD56-323 (protein)
chain 1: EVRLVQSGAEVKKPGESLKISCKGSGYSFTSCWIGWVRQMPGKGLEWMGIIYPGDSDTRYSPSFQGQVTISADKSISTAYLQWSSLKASDTAMYYCARPMGFGELGPAFDIWGQGTMVTVSS
chain 2: QSVLTQPPSVSAAPGQKVTISCSGSSSNIGNNYVSWYQQLPGTAPKLLIYDSNERPSGIPDRFSGSKSGTSATLGITGLQTGDEADYYCGTWDSSLSALVFGGGTKLTVL

What was measured:
Test in all cases: pseudovirus neutralization IC50; higher = weaker neutralization
[1] = target: SARS-CoV-2 Omicron BA.1 spike pseudovirus
Method: (§1)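 Single-round VSV luciferase pseudovirus mixed with antibody dilutions for 1 h and put on Huh-7 cells for about a day; IC50 from the dose curve.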

[2] = target: SARS-CoV-2 Omicron BA.2 spike pseudovirus
Method: as §1

[3] = target: SARS-CoV-2 Omicron BA.2.75 spike pseudovirus
Method: as §1

[4] = target: SARS-CoV-2 Omicron BA.2.75.2 spike pseudovirus
Method: as §1

[5] = target: SARS-CoV-2 Omicron BA.5 spike pseudovirus
Method: as §1

[6] = target: SARS-CoV-2 Omicron BM.1.1.1 spike pseudovirus
Method: as §1

[7] = target: SARS-CoV-2 Omicron BQ.1.1 spike pseudovirus
Method: as §1

[8] = target: SARS-CoV-2 Omicron BR.2 spike pseudovirus
Method: as §1

[9] = target: SARS-CoV-2 Omicron CA.1 spike pseudovirus
Method: as §1

[10] = target: SARS-CoV-2 Omicron XBB spike pseudovirus
Method: as §1

[11] = target: SARS-CoV-2 early D614G spike pseudovirus
Method: as §1

Row | Binder | pseudovirus neutralization IC50 [1] [µg/mL] | pseudovirus neutralization IC50 [2] [µg/mL] | pseudovirus neutralization IC50 [3] [µg/mL] | pseudovirus neutralization IC50 [4] [µg/mL] | pseudovirus neutralization IC50 [5] [µg/mL] | pseudovirus neutralization IC50 [6] [µg/mL] | pseudovirus neutralization IC50 [7] [µg/mL] | pseudovirus neutralization IC50 [8] [µg/mL] | pseudovirus neutralization IC50 [9] [µg/mL] | pseudovirus neutralization IC50 [10] [µg/mL] | pseudovirus neutralization IC50 [11] [µg/mL]
1 | B1 | 0.00876 | 0.0051 | 0.0389 | > 10 | > 10 | > 10 | > 10 | > 10 | > 10 | > 10 | > 10
2 | B2 | > 10 | > 10 | > 10 | > 10 | > 10 | > 10 | > 10 | > 10 | > 10 | > 10 | > 10
3 | B3 | 0.0234 | 0.0175 | 0.453 | 0.242 | 0.0208 | 0.182 | 0.0592 | 0.13 | 0.269 | 5.75 | > 10
4 | B4 | 0.0008 | 0.00137 | 0.00195 | 0.00476 | 0.000983 | 0.00419 | 0.00582 | 0.00731 | 0.00519 | > 10 | > 10
5 | B5 | 0.00557 | 0.00768 | 0.647 | 1.81 | 0.0149 | > 10 | 2.89 | > 10 | > 10 | > 10 | > 10
6 | B6 | > 10 | > 10 | > 10 | > 10 | > 10 | > 10 | > 10 | > 10 | > 10 | > 10 | > 10
7 | B7 | 2.34 | 0.281 | 1.5 | 0.933 | 0.157 | > 10 | 0.751 | > 10 | > 10 | > 10 | > 10
8 | B8 | > 10 | > 10 | > 10 | > 10 | > 10 | > 10 | > 10 | > 10 | > 10 | > 10 | > 10
9 | B9 | 0.316 | 4.03 | 2.89 | > 10 | > 10 | > 10 | > 10 | > 10 | > 10 | > 10 | > 10
10 | B10 | 1.1 | > 10 | > 10 | > 10 | > 10 | > 10 | > 10 | > 10 | > 10 | > 10 | > 10
